{
  "source": "paper PMC7132624",
  "about": "(Biochemical and biophysical research communications, 2020)",
  "target": "T1, influenza A/PR/8 NP protein (influenza A/PR/8, UniProt P03466 1-498)",
  "T1 sequence": "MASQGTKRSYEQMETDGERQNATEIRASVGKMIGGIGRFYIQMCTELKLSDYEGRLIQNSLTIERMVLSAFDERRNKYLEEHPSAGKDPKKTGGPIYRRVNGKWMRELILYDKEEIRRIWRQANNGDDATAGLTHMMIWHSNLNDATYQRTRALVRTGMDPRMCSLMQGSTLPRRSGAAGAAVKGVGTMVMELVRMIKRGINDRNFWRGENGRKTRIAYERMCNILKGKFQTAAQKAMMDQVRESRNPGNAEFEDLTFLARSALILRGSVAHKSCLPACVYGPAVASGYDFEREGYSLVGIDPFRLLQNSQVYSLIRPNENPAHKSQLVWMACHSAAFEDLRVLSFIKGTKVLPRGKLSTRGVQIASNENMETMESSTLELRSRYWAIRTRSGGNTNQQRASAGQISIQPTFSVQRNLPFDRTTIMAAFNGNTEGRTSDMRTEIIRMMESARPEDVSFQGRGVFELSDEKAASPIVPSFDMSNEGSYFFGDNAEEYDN",
  "test": "pull-down",
  "data": [
    {"binder": "MAENDVDNELLDYEDDEVETAAGGDGAEAPAKKDVKGS (domain or fragment, UniProt Q13838 1-38, looked up)", "note": "[GST-tagged UAP56-NTE_(1-38) (a.a. 1-38)]", "values": [
      {"measurement": "binding result", "value": "binds"}
    ]},
    {"binder": "GST-tagged UAP56-Core ([…]) (domain or fragment) not shown", "values": [
      {"measurement": "binding result", "value": "binds"}
    ]}
  ]
}
